Measured values from several laboratories, pooled; numbers as filed in NIAID ChemDB.

Common to all: growth or infection tests; species: HIV-1

Conditions beyond the fields shown may differ between rows. a–b is a range or a potency band. An empty or dashed field is not shown. ECn: concentration that inhibits the pathogen or its effect by n%.

structure | mutations | strain | method | cell line | measure | result
CCN1C(=O)N(Cc2ccccc2)S(=O)(=O)c2cscc21 | RT-V106A | IIIB | syncytia | CEM | EC50 | >310 µM
CC(C)n1nc(-c2ccc3oc(N)nc3c2)c2c(N)ncnc21 | - | 92BR020 | p24 / ELISA | PBMC | EC50 | 0.00103 µM
CCc1nc(SCC(N)=O)n(COCc2ccccc2)c1Cc1cc(C)cc(C)c1 | - | IIIB | cytopathic effect / MTT | MT-4 | EC50 | 2.48 µM
CC(C)c1c(Sc2ccc3ccccc3c2)n(COCc2ccccc2)c(=O)[nH]c1=O | - | IIIB | cytopathic effect / MTT | MT-4 | EC50 | 0.83 µM
CC[C@]1(c2ccccc2)Oc2cccnc2-n2cccc2C1=O | - | IIIB | - | C8166 | EC50 | 0.56 µM
NS(=O)(=O)c1ccc(NC(=O)COc2ccccc2NS(=O)(=O)c2ccccc2)cc1 | - | IIIB | syncytia | C8166 | EC50 | 8.407 µM
CN1C(=O)N(Cc2ccccc2)c2cscc2S1(=O)=O | - | IIIB | cytopathic effect / MTT | MT-4 | EC50 | >77.8 µM
Cc1cn([C@H]2C[C@H](N=[N+]=[N-])[C@@H](CO)O2)c(=O)[nH]c1=O | F227L V106A | - | MTT | MT-4 | EC50 | 0.0065 µM
COC[C@@H](c1ccc(C(F)(F)F)cc1)N1CCN(C2(C)CCN(C(=O)c3c(C)ncnc3C)CC2)C[C@@H]1C | - | CC1/85 maraviroc-resistant isolate | p24 / ELISA | PBMC | EC50 | >20 µM
Cc1c([Se]c2ccccc2)n(COCCO)c(=O)[nH]c1=O | - | IIIB | cytopathic effect / MTT | MT-2 | EC50 | 21.8 µM
Cc1cn([C@H]2C[C@H](N=[N+]=[N-])[C@@H](CO)O2)c(=O)[nH]c1=O | - | AZT-resistant A012C Clinical isolate | plaque count | HT4 + HT4-6C | EC50 | 4 µM
N#CCN1C(=O)N(Cc2ccccc2)S(=O)(=O)c2cscc21 | RT-E138K | IIIB | syncytia | CEM | EC50 | 7.2 µM
COc1ccc(S(=O)(=O)Nc2ccccc2OCC(=O)Nc2ccc(S(N)(=O)=O)cc2)cc1 | - | IIIB | syncytia | C8166 | EC50 | >203 µM
Cc1cn([C@H]2CC[C@@H](CO)O2)c(=O)[nH]c1=O | - | AZT-resistant A012D Clinical isolate | plaque count | HT4 + HT4-6C | EC50 | 290 µM
Cc1ccnc2c1NC(=O)c1cccnc1N2C1CC1 | RT-M41L K103N T215Y | MDR (RT M41L K103N T215Y) Clinical isolate | p24 | PBMC | EC50 | 14.8 µM
CNC(=O)[C@@H](NC(=O)[C@H](OCc1ccccc1)[C@H](O)[C@@H](O)[C@@H](OCc1ccccc1)C(=O)N[C@H](C(=O)NC)C(C)C)C(C)C | - | - | cytopathic effect / XTT | MT-4 | EC50 | 1 µM
O=C1c2ccccc2C(=O)N1CCOC(=S)N(C(=O)c1ccccc1)c1ccccc1 | - | IIIB | cytopathic effect / MTT | C8166 | EC50 | <0.8 µM
C#CCN1C(=O)N(Cc2ccccc2)S(=O)(=O)c2cscc21 | - | IIIB | syncytia | CEM | EC50 | 5.1 µM
Cc1cn([C@H]2C[C@H](N=[N+]=[N-])[C@@H](CO)O2)c(=O)[nH]c1=O | RT-M184V | - | p24 | CD4+HELA + HeLa | EC50 | 0.07 µM
O=c1[nH]cnc2c1ncn2[C@H]1CC[C@@H](CO)O1 | - | 7898 CLADE B CLADE B | p24 | PBMC | EC50 | 0.369 µM
CN(C)CCOc1ccc(C[C@H](C[C@H](O)[C@H](Cc2ccccc2)NC(=O)OC(C)(C)C)C(=O)N[C@H]2c3ccccc3C[C@H]2O)cc1 | - | IIIB | antigen | H9 | EC50 | <0.4 µM
Cc1cn([C@H]2C[C@H](N=[N+]=[N-])[C@@H](CO)O2)c(=O)[nH]c1=O | - | IIIB | cytopathic effect / MTT | MT-4 | EC50 | 0.002–0.042 µM
Cc1cn([C@H]2C[C@H](N=[N+]=[N-])[C@@H](CO)O2)c(=O)[nH]c1=O | - | 4246 Clinical isolate | RT activity | MT-2 | EC50 | 0.001 µM
Cc1c(Cc2c(F)cccc2F)nc(SC2CCCC2)[nH]c1=O | - | IIIB | p24 | MT-4 | EC50 | <0.075 µM
Cc1cc(C#N)cc(C)c1Oc1nc(Nc2ccc(C#N)cc2)ncc1SCC(=O)N1CCSCC1 | RES056 | - | MTT | MT-4 | EC50 | 3.91 µM
CCOCn1c(Sc2cccc3ccccc23)c(CC)c(=O)[nH]c1=O | - | IIIB | cytopathic effect / MTT | MT-4 | EC50 | 0.15 µM
NC(=O)CN1C(=O)N(Cc2ccccc2)c2cscc2S1(=O)=O | - | IIIB | syncytia | CEM | EC50 | >284.5 µM
CCc1c(Sc2cccc3ccccc23)n(COCc2cccc(C)c2)c(=O)[nH]c1=O | - | IIIB | cytopathic effect / MTT | MT-4 | EC50 | 0.21 µM
O=C1c2ccccc2C(=O)N1CCOC(=S)N(C(=O)c1ccccc1)c1ccc(Cl)cc1 | RT-Y181C | N119 nevirapine-resistant (RT Y181C) | cytopathic effect / MTT | MT-4 | EC50 | >100 µM
Cc1cn([C@H]2C[C@H](N=[N+]=[N-])[C@@H](CO)O2)c(=O)[nH]c1=O | - | IIIB | MTT | MT-4 | EC50 | 0.0151 µM
Oc1cccc(CN(CCN2CCCCC2)CC2CCCN(C3CCCC3)C2)c1 | - | NL4-3 | MTT | MT-4 | EC50 | 1.5 µM
Cc1cn([C@H]2C[C@H](N=[N+]=[N-])[C@@H](CO)O2)c(=O)[nH]c1=O | - | IIIB | syncytia | C8166 | EC50 | 0.002 µM
CN(C[C@@H](CCN1CCC(c2ccccc2)CC1)c1cccc(Cl)c1)S(=O)(=O)c1ccccc1 | - | M-tropic YU-2 | p24 / antigen | - | EC50 | <6 µM
O=c1[nH]cnc2c1ncn2[C@H]1CC[C@@H](CO)O1 | - | IIIB | cytopathic effect / MTT | - | EC50 | 4.2 µM
CC(C)c1c(Sc2cccc3ccccc23)n(COCC2CCCCC2)c(=O)[nH]c1=O | - | IIIB | cytopathic effect / MTT | MT-4 | EC50 | 12.53 µM
COc1ccc(CN2C(=O)Nc3cscc3S2(=O)=O)c(OC)c1 | - | IIIB | syncytia | CEM | EC50 | >282.2 µM
CC(C)=CCOc1cc(NC(=S)c2ccoc2C)ccc1Cl | - | IIIB | p24 | MT-2 | EC90 | 0.02716 µg/mL
CN(C[C@@H](CCN1CCC2(CC1)CS(=O)c1ccccc12)c1cccc(Cl)c1)S(=O)(=O)c1ccccc1 | - | M-tropic YU-2 | p24 / antigen | PBMC | EC95 | 0.8 µM
Oc1ccccc1CN(CCN1CCCCC1)CC1CCCN(C2CCCC2)C1 | - | NL4-3 | p24 | PBMC | EC50 | 2.6 µM
O=C1N(Cc2ccccc2)c2cscc2S(=O)(=O)N1Cc1ccccc1 | RT-E138K | IIIB | syncytia | CEM | EC50 | ≥10 µM
NS(=O)(=O)c1ccc(NC(=O)COc2ccccc2NS(=O)(=O)c2ccc([N+](=O)[O-])cc2)cc1 | - | IIIB | syncytia | C8166 | EC50 | 4.482 µM
CN(C[C@@H](CCN1CCC2(CC1)CS(=O)(=O)c1ccccc12)c1cccc(Cl)c1)S(=O)(=O)c1ccccc1 | - | M-tropic YU-2 | p24 / antigen | PBMC | EC95 | 8 µM
CCc1c(Sc2ccc3ccccc3c2Cl)n(COC)c(=O)[nH]c1=O | - | IIIB | cytopathic effect / MTT | MT-4 | EC50 | 22.66 µM
CCOCn1c(SCC(N)=O)nc(C(C)C)c1Cc1ccccc1 | - | IIIB | cytopathic effect / MTT | MT-4 | EC50 | 10.96 µM
CN1CCN(CCOc2ccc(C[C@H](C[C@H](O)[C@H](Cc3ccccc3)NC(=O)OC(C)(C)C)C(=O)N[C@H]3c4ccccc4C[C@H]3O)cc2)CC1 | - | IIIB | p24 | H9 | EC50 | <0.1 µM
CC(C)=CCN1Cc2cccc3[nH]c(=S)n(c23)C[C@@H]1C | - | IIIB | cytopathic effect / MTT | MT-2 | EC50 | 0.6 µM
O=C1c2ccccc2C(=O)N1CCOC(=S)N(C(=O)c1cccs1)c1ccc(Cl)cc1 | RT-K103R V179D P225H | IIIB | cytopathic effect / MTT | MT-4 | EC50 | >100 µM
Nc1ccn([C@H]2CC[C@@H](CO)O2)c(=O)n1 | - | IIIB | cytopathic effect / MTT | - | EC50 | 1.7 µM
O=C(N[C@H]1c2ccccc2C[C@H]1O)[C@H](OCc1ccccc1)[C@H](O)[C@@H](O)[C@@H](OCc1ccccc1)C(=O)N[C@H]1c2ccccc2C[C@H]1O | - | - | cytopathic effect / XTT | MT-4 | EC50 | 0.1 µM
CC(C)(C)OC(=O)N[C@@H](Cc1ccccc1)[C@@H](O)C[C@@H](Cc1ccc(OCCN2CCOCC2)cc1)C(=O)N[C@H]1c2ccccc2C[C@H]1O | - | IIIB | p24 | PBL | EC50 | <0.012 µM
S=C(NCCc1ccccn1)Nc1ccc(Br)cn1 | RT-K103N Y181C | A17 | cytopathic effect / MTT | MT-4 | EC50 | >100 µM
O=C1Nc2cscc2S(=O)(=O)N1c1ccc(F)cc1 | - | IIIB | syncytia | CEM | EC50 | >67 µM
CCOCn1c(Sc2cccc3ccccc23)c(CC(C)C)c(=O)[nH]c1=O | - | IIIB | cytopathic effect / MTT | MT-4 | EC50 | 7.37 µM
Cc1ccnc2c1NC(=O)c1cccnc1N2C1CC1 | RT-V106A | IIIB | syncytia | CEM | EC50 | 2.44 µM
O=c1cc(Cc2c(F)cccc2F)nc(SC2CCCC2)[nH]1 | - | IIIB | p24 | MT-4 | EC50 | <0.3 µM
O=c1[nH]cnc2c1ncn2[C@H]1CC[C@@H](CO)O1 | - | IIIB | cytopathic effect / MTT | MT-4 | EC50 | 5.37 µM
CCOCn1c(Sc2ccccc2)c(CC)c(=O)[nH]c1=O | - | IIIB | cytopathic effect / MTT | MT-2 | EC50 | 0.1 µM
COc1ccc(CN(CCN2CCCCC2)CC2CCCN(C3CCCC3)C2)cc1O | - | NL4-3 | MTT | MT-4 | EC50 | 2.6 µM
CCOCn1c(SCC(N)=O)nc(C(C)C)c1Cc1cc(C)cc(C)c1 | - | IIIB | cytopathic effect / MTT | MT-4 | EC50 | 0.31 µM
O=C(O)/C=C/c1ccc[c]([Sb](=[O])([OH])[OH])c1 | - | RF | cytopathic effect | CEM + CEM-SS | EC50 | 0.94 µM
O=C(NCc1ccccc1)[C@H](OCc1ccccc1)[C@H](O)[C@@H](O)[C@@H](OCc1ccccc1)C(=O)N[C@H]1c2ccccc2C[C@H]1O | - | - | cytopathic effect / XTT | MT-4 | EC50 | 3 µM
CC(C)c1nc(SCC(N)=O)n(COCc2ccccc2)c1CC1CCCCC1 | - | IIIB | cytopathic effect / MTT | MT-4 | EC50 | 4.29 µM